Assay [1] relates to adult muscle nAChRs. Conditions: toxin preferentially bound to the α/γ interface; ref [46]; cited from earlier work.
Assay [2] has as its target mouse α1β1δε nAChR (Mus musculus, UniProt P02716+P04756+P20782).
In assay [3] the target is rat α9α10 nAChR (Rattus norvegicus, UniProt P43144+Q9JLB5).

Sequences of proteins named here, by UniProt entry; tags and fusion partners are left off. A change or cut given only in a name is not applied to a line headed by its entry. Residues count along the entry.
UniProt P02716: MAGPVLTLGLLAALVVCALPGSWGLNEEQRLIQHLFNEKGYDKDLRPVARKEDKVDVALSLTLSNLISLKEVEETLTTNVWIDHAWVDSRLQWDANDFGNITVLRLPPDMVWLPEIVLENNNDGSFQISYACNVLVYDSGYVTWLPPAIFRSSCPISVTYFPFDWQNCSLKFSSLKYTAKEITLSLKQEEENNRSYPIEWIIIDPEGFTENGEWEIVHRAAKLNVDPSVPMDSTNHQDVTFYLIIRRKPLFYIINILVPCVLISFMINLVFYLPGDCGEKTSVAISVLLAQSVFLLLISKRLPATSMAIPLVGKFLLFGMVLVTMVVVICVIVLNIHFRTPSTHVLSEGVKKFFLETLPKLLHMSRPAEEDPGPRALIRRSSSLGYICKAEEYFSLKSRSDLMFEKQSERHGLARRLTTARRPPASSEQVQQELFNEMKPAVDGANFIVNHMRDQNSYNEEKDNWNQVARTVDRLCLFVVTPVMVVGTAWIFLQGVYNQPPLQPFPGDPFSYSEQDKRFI
UniProt P04756: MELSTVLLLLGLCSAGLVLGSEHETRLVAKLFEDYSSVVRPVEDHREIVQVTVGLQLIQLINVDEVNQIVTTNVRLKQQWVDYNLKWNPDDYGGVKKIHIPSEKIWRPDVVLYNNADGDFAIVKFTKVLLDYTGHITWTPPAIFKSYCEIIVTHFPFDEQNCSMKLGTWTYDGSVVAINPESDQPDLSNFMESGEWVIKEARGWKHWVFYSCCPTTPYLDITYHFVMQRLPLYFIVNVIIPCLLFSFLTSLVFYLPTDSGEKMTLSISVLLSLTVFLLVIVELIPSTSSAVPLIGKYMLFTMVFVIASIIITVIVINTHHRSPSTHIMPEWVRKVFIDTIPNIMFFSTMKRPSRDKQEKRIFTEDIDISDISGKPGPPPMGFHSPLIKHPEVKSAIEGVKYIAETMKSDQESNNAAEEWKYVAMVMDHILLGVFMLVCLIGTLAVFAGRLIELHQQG
UniProt P20782: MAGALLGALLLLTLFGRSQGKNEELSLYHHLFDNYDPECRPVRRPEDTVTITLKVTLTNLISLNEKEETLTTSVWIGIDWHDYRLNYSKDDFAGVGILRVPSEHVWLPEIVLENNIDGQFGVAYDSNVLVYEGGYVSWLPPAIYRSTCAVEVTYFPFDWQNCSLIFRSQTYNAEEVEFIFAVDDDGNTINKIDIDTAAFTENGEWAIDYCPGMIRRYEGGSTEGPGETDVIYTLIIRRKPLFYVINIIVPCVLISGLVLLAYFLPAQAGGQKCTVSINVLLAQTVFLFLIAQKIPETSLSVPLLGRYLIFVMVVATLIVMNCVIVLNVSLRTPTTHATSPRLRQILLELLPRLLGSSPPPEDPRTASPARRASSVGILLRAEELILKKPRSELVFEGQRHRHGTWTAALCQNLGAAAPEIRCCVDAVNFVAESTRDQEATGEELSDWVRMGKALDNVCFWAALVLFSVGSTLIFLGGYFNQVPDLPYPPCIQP
UniProt P43144, 26-479 limits assumed: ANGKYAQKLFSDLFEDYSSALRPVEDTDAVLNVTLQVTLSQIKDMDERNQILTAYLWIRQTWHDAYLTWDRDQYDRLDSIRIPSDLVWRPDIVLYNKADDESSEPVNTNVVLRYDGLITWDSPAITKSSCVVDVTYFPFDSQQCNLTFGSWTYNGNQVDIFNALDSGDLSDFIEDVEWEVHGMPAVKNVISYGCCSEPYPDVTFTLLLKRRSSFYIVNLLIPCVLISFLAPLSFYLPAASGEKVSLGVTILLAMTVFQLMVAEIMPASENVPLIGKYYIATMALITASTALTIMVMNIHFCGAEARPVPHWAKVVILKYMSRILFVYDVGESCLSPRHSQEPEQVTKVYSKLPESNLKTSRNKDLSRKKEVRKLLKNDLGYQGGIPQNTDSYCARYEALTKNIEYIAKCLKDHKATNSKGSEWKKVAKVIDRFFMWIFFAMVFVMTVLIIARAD
UniProt Q9JLB5, 25-447 limits assumed: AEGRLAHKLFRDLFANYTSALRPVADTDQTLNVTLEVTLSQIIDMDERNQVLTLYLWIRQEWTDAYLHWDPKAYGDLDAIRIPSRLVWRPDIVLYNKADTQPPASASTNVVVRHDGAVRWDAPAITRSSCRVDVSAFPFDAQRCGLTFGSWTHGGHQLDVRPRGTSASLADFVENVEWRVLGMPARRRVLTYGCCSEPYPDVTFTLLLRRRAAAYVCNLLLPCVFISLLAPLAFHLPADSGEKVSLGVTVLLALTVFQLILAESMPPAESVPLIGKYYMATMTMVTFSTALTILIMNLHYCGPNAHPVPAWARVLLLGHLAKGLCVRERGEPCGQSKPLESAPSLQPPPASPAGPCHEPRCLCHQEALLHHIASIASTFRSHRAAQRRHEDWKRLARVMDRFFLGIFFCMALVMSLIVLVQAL

pIC50: −log10 of the molar value.

As for αA-conotoxin OIVB, the “lower affinity for adult muscle nAChRs” value in assay [1] was 1800 fold.
In the case of `C[C@@H]1NC(=O)[C@@H]2CCCN2C(=O)[C@H](CC(N)=O)NC(=O)[C@@H]2CSSC[C@@H](C(N)=O)NC(=O)[C@H](CO)NC(=O)[C@H](Cc3ccc(O)cc3)NC(=O)[C@H](Cc3c[nH]cn3)NC(=O)[C@H](CCCNC(=N)N)NC(=O)CNC(=O)[C@H](CSSC[C@H](NC(=O)[C@@H](N)CCC(=O)O)C(=O)N2)NC1=O`, the pIC50 is 8.23 in assay [2] and 5.03 in assay [3].

A word on the pIC50: it is the negative decadic logarithm of the IC50, by convention in mol/L.

The record behind these values is paper PMC6315591 (Marine Drugs, 2018).
